Results of unrelated studies side by side (data: NIAID ChemDB).

All rows: whole-cell or culture tests; agent: Cryptococcus neoformans; measure: EC50

Blank or dashed fields: not listed here.

compound,strain,read by,result
N#Cc1ccc2[nH+]c3c4ccccc4n(CCCCCC4CCCCC4)c3cc2c1,ATCC 90113,,>50 µg/mL
O/N=C/c1cc[n+](Cc2cc(C[n+]3ccc(/C=N/O)cc3)on2)cc1.[Br-].[Br-],,broth dilution,>20 µg/mL
C[n+]1c2cccc(O)c2cc2sc3ccccc3c21,ATCC 90113,broth dilution,>20 µg/mL
CC(C(O)(Cn1cncn1)c1ccc(F)cc1F)S(C)(=O)=O,B4500 (AZOLE-S),,0.4 µM
C=C1CC[C@@H]2C(C)(C)CCC[C@@]2(C)[C@@H]1CC/C(C)=C/Cn1c[n+](C)c2ncnc(NO)c21,ATCC 90113,resazurin,5.94 µg/mL
COc1cc2ccnc3c2c(c1OC(=O)c1cccc(F)c1F)N(C)C=C3,,,>15 µg/mL
CN1c2c([nH]c3ccccc23)C=C2C=CC=CC21,ATCC 90113,,15.6 µg/mL
CC(C(=O)O)N1C(=O)CSC1c1ccccn1,,broth dilution,22.5 µM
O/N=C/c1cccc[n+]1Cc1ccc(Br)s1.[Cl-],,broth dilution,>20 µg/mL
OC(Cn1cncn1)(Cn1cncn1)c1ccc(F)cc1F,Var. neoformans (isolate 45645),colony count,<1 µg/mL
Cc1cc(C[n+]2cccc(C=NO)c2)on1.[Br-],,broth dilution,>20 µg/mL
O=C(O)C(Cc1ccccc1)N1C(=O)CSC1c1c(Cl)cccc1Cl,,broth dilution,12.16 µM
COc1cc2ccnc3c2c(c1OC(=O)c1ccc(F)cc1)N(C)C=C3,,,>15 µg/mL
C[C@@H]1CCC2(OC1)OC1CC3C4C[C@H](OC5O[C@@H](CO)[C@H](O)[C@@H](O)[C@@H]5O)[C@H]5C[C@@H](OC6O[C@H](CO)[C@@H](O)[C@H](O)[C@H]6O)CC[C@]5(C)C4CC[C@]3(C)C1[C@@H]2C,ATCC 90113,,8.5 µg/mL
CCCCc1oc2ccccc2c1C(=O)c1cc(I)c(OCCN(CC)CC)c(I)c1,271,,<7 µM
CN(c1ccc(Cl)cc1)c1cc2ccccc2[n+](C)c1.[I-],ATCC 90113,resazurin,>20 µg/mL
c1ccc2c(c1)cc1[nH]c3ccccc3c1[n+]2CCCCCC1CCCCC1,ATCC 90113,,0.3 µg/mL
CN(c1cc2ccccc2[n+](C)c1)c1ccccc1Cl.[I-],ATCC 90113,resazurin,>20 µg/mL
CCc1ccc(C(=O)Oc2c(OC)cc3ccnc4c3c2N(C)C=C4)cc1,,,5.5 µg/mL
c1ccc(CCCCCn2c3ccccc3c3nc4ccccc4cc32)cc1,ATCC 90113,,9 µg/mL
C[C@@H]1[C@H](O)[C@@H](C)/C=C/C=C/C=C/C=C/C=C/C=C/C=C/[C@H](O[C@@H]2O[C@H](C)[C@@H](O)[C@H](N)[C@@H]2O)C[C@@H]2O[C@](O)(C[C@@H](O)C[C@@H](O)[C@H](O)CC[C@@H](O)C[C@@H](O)CC(=O)O[C@H]1C)C[C@H](O)[C@H]2C(=O)O,H99,broth dilution,>10 µg/mL
COc1cc2ccnc3c2c(c1OC(=O)c1ccccc1C)N(C)C=C3,,,15 µg/mL
COc1ccccc1C1SCC(=O)N1C(CC(C)C)C(=O)O,,broth dilution,35.85 µM
COc1cc2ccnc3c2c(c1OC(=O)c1ccc(F)c(F)c1)N(C)C=C3,,,>15 µg/mL
CN(CC#CC#CC(C)(C)C)c1cccc2c1CCC(=O)N2,CY1059,,>200 µg/mL
CC(=O)c1c(O)c(C)c(O)c(C=O)c1O,,,>20 µg/mL
ON=Cc1ccc[n+](Cc2csc3ccccc23)c1.[Cl-],,broth dilution,>20 µg/mL
CC(C)CC(=O)c1c(O)c(C=O)c(O)c(C=O)c1O,,,>20 µg/mL
COc1ccccc1C1SCC(=O)N1CC(=O)O,,broth dilution,79.49 µM
C[n+]1cccc(Nc2ccccc2)c1.[I-],ATCC 90113,resazurin,>20 µg/mL
CC(=O)c1c(O)cc(O)c(C=O)c1O,,,>20 µg/mL
O=C(O)C(Cc1ccccc1)N1C(=O)CSC1c1ccccn1,,broth dilution,15.16 µM
C[n+]1c2cccc(Cl)c2cc2sc3ccccc3c21,ATCC 90113,broth dilution,>20 µg/mL
O=C(O)C(Cc1ccccc1)N1C(=O)CSC1c1ccc(Cl)cc1,,broth dilution,49.8 µM
COc1cc2ccnc3c2c(c1OC(=O)N1CCCC1)N(C)C=C3,,,>15 µg/mL
c1ccc(CCCCC[n+]2c3ccccc3cc3[nH]c4ccccc4c32)cc1,ATCC 90113,,1.3 µg/mL
CC(C)CC(=O)c1c(O)cc(O)c(C=O)c1O,,,>20 µg/mL
CCCCCCCC/C=C/CCCCCCCCC(=O)Oc1c(OC)cc2ccnc3c2c1N(C)C=C3,,,>15 µg/mL
COc1cc(NC(C)CCCN)c2nc(C(C)(C)C)cc(C)c2c1Oc1cccc(C(F)(F)F)c1,,,2 µg/mL
O=C(O)CN1C(=O)CSC1c1ccc(Cl)cc1,,broth dilution,77.51 µM
COc1c(O)c2c(=O)cc(OC)c3c4c(OC)cc(=O)c5c(O)c(OC)c6c(c(c1CC(C)=C6OC(C)=O)c23)c54,,,>100 µg/mL

For reference, 6 entries again:

compound | strain | read by | result
COc1cc2ccnc3c2c(c1OC(=O)c1ccc(F)c(F)c1)N(C)C=C3 |  |  | >15 µg/mL
COc1cc2ccnc3c2c(c1OC(=O)c1ccc(F)cc1)N(C)C=C3 |  |  | >15 µg/mL
COc1cc2ccnc3c2c(c1OC(=O)N1CCCC1)N(C)C=C3 |  |  | >15 µg/mL
CC(=O)c1c(O)c(C)c(O)c(C=O)c1O |  |  | >20 µg/mL
O=C(O)C(Cc1ccccc1)N1C(=O)CSC1c1c(Cl)cccc1Cl |  | broth dilution | 12.16 µM
COc1cc2ccnc3c2c(c1OC(=O)c1cccc(F)c1F)N(C)C=C3 |  |  | >15 µg/mL

ECn: concentration that inhibits the pathogen or its effect by n%. Rows are shuffled and stem from different studies.